The source of these data is US6960606B2, “Adamantyl Thiazole Thioureas” (Parker Hughes Institute, priority 2000, dated 2005).

A value given as a limit tells only on which side of the number the result lay.

The series has as its system HIV-1 strain HTLVIIIB
Nature of the series: Inhibition of HIV-1 HTLVIIIB replication in PBMC (p24 antigen EIA). The format is cell-based. The note with it: selectivity index, SI=CC50/IC50. The protocol: Normal human peripheral blood mononuclear cells (PBMNC) from HIV-negative donors were cultured 72 hours in RPMI 1640 supplemented with 20% (v/v) heat-inactivated fetal bovine serum (FBS), 3% interleukin-2, 2 mM L-glutamine, 25 mM HEPES, 2 g/L NaHCO3, 50 μg/mL gentamicin, and 4 μg/mL phytohemagglutinin prior to exposure to the HIV-1 strain HTLVIIIB. The cells were then infected with virus at a multiplicity of infection (MOI) of 0.1 during a 1-hour adsorption period at 37° C. in a humidified 5% CO2 atm. Subsequently, cells were cultured in 96-well microtiter plates (100 μl/well; 2×10^6 cells/mL) in the presence of various inhibitor concentrations. Aliquots of culture supernatants were removed from the wells on the 7th day after infection for p24 antigen assays. The applied p24 enzyme immunoassay (EIA) was the unmodified kinetic assay commercially available from Coulter Corporation/Immunotech, Inc. (Westbrooke, Me.), which utilizes a murine mAb to HIV core protein coated onto microwell strips to which the antigen present in the test culture supernatant samples binds. Percent viral inhibition was calculated by comparing the p24 values from the test substance-treated infected cells with p24 values from untreated infected cells (i.e., virus controls). The effects of various treatments on cell viability were also examined and the results were expressed as the cytotoxic concentration (CC)50 values. The selectivity indices (SI) were calculated using the formula: SI=CC50/IC50.
With “N-[1-(1-Adamantyl)methyl]-N′-[2-(thiazolyl)]thiourea [Compound 5]”, the SI was 40,000.
On to “N-[1-(1-Furoylmethyl)]-N′-[2-(thiazolyl)]thiourea [Compound 6]”, for which the SI is > 100,000.
With “N-[2-(2-Indole)ethyl]-N′-[2-(thiazolyl)]thiourea [Compound 8]”, the SI was 28,000.
Regarding “N-[2-(2-Thiophenylethyl)]-N′-[2-(thiazolyl)]thiourea [Compound 1]”, the SI is 71,000.
Consider “N-[2-(4-Methylphenyl)ethyl]-N′-[2-(thiazolyl)]thiourea [Compound 4]”, for which the SI is given as 1429.
On to “N-[2-(Phenoxyethyl)]-N′-[2-(thiazolyl)]thiourea [Compound 3]”, for which the SI is >100,000.
The value for “N-[2-Pyridylethyl]-N′-[2-(thiazolyl)]thiourea [Compound 11]” was 100; that for “N-[3-(2-Imidazole)propyl]-N′-[2-(thiazolyl)]thiourea [Compound 7]” was 35,000.
“N-[3-(Pyrrolidinone)propyl]-N′-[2-(thiazolyl)]thiourea [Compound 12]” returned an SI of 2.
